The test system of experiment [1] is Escherichia coli. The experiment in a line: Activity of Escherichia coli beta-lactamase Toho-1 D240A mutant assessed as compound hydrolysis by spectrophotometry.
Experiment [2] concerns Escherichia coli. Put plainly: Activity of Escherichia coli beta-lactamase Toho-1 G232A mutant assessed as compound hydrolysis by spectrophotometry.
Experiment [3] concerns Escherichia coli. The experiment in a line: Activity of Escherichia coli beta-lactamase Toho-1 C69A mutant assessed as compound hydrolysis by spectrophotometry.
In experiment [4] the test system is Escherichia coli. The experiment in a line: Activity of Escherichia coli beta-lactamase Toho-1 N104A mutant assessed as compound hydrolysis by spectrophotometry.

One may read the kcat as the number of substrate molecules converted per active site and unit of time at saturation. As to `CC1(C)S[C@@H]2[C@H](NC(=O)Cc3ccccc3)C(=O)N2[C@H]1C(=O)O`, the kcat in experiment [1] amounted to 30 s⁻¹; in experiment [2] it was 56 s⁻¹; in experiment [3] it was 54 s⁻¹; in experiment [4], 31 s⁻¹.

These data come from ChEMBL document CHEMBL1687837, “Roles of residues Cys69, Asn104, Phe160, Gly232, Ser237, and Asp240 in extended-spectrum beta-lactamase Toho-1” (2011).
